Biological target: Singapore wild-type M2-MalE chimera (Influenza A virus, UniProt P10920)
Conditions: 50 μM IPTG induction, 100 μM rimantadine, FIG. 1

## CC(N)C12CC3CC(CC(C3)C1)C2 (stereo not shown) [rimantadine, Rimantadine]
  expression of the M2 chimeric protein: enhanced

Reference: US20130053277A1 (priority 2010, published 2013)
